PubChem BioAssay AID1259414, Drosophila RNAi Screening Center, 2018

Test: 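Host factors increasing or decreasing Wolbachia levels in cultured fly cells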 (primary screen)
Cell system: Drosophila JW18 cells infected with Wolbachia
Knock-down reagent: long dsRNA against Drosophila genes, 0.25 µg dsRNA per well of a 384-well plate
Time to read-out: 5 days
Conditions: cells persistently infected with Wolbachia before knock-down; no added drug
Measured: 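Imaged fluorescence in situ signal for Wolbachia 23S rRNA per DAPI-counted host cell, given as a robust z-score within each plate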
Direction: Wolbachia per cell robust z: higher = more Wolbachia per host cell than the plate typical
Call rule: 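Active if absolute robust z reaches 1.5 in two or more of three replicates, leaving out multi- or no-target dsRNAs, genes unexpressed in JW18 and A1 wells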
The deposit covers about 24,000 reagents; shown is a random part of those that have a named target and a result. In the full data, about 1,210 (5%) are marked active. 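Inactive calls also include excluded dsRNAs with several or no targets, genes unexpressed in JW18, and well A1, regardless of score.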 Entries without a mark were called inactive. A plus sign joins genes that one reagent is predicted to hit.

Gene	dsRNA	Wolbachia per cell robust z, rep 1	Wolbachia per cell robust z, rep 2	Wolbachia per cell robust z, rep 3
Cdk2 (Cyclin-dependent kinase 2)	DRSC16921	0.197	-3.71	1.5
CG8837	DRSC00711	0.437	0.863	-0.183
CG8837	DRSC29440	-0.208	-0.76	-0.322
Rok (Rho kinase)	DRSC20277	0.669	1.01	0.333
Rok (Rho kinase)	DRSC23348	-1.15	-1.49	-0.865
Acsx3 (Acyl-CoA synthetase X3)	DRSC14309	-0.0743	0.373	1.07
asRNA:CR43476 + CG42534	DRSC23246	-0.674	-1.34	-0.109
Mt2 (Methyltransferase 2)	DRSC03374	1.34	0.306	0.329
AnxB11 (Annexin B11)	DRSC19331	0.185	-0.579	-1.67
AnxB11 (Annexin B11)	DRSC26479	-0.897	0.02	0.465
Arf1 (ADP ribosylation factor 1)	DRSC11606	-1.09	-0.00322	-3.8
flap (flapper)	DRSC03918	-0.344	-0.436	-0.524
flap (flapper)	DRSC04087	0.523	-0.107	-0.376
CG10748	DRSC09797	-1.65	0.337	1.17
Coa7 (Cytochrome c oxidase assembly factor 7)	DRSC20967	1.31	0.139	0.546
Coa7 (Cytochrome c oxidase assembly factor 7)	DRSC27224	-0.531	-2.19	0.101
CG14855	DRSC14979	0.786	-0.701	1.16
CG14855	DRSC27350	-0.729	-0.607	-1.36
CG14855	DRSC39068	-0.794	0.536	-2.05
Trm1 (tRNA methyltransferase 1)	DRSC02951	-0.0878	0.139	0.167
side-IV + asRNA:CR17025	DRSC15168	-2.22	-3.43	-3.15
Cul5 (Cullin 5)	DRSC14723	0.128	-0.432	-0.485
E(spl)m8-HLH (Enhancer of split m8, helix-loop-helix)	DRSC16654	-0.286	0.283	1.55
E(spl)m8-HLH (Enhancer of split m8, helix-loop-helix)	DRSC28065	0.916	0.187	-0.151
eIF4E4 (eukaryotic translation initiation factor 4E4)	DRSC09701	-0.933	-0.0879	0.115
PolE4 (DNA polymerase epsilon subunit 4)	DRSC04105	-1.55 (active)	-0.97	-9.16
tim (timeless)	DRSC00841	0.829	0.266	-0.249
CG12547	DRSC07759	0.172	0.275	-0.157
TpnC41C (Troponin C at 41C)	DRSC04916	-1.79	0.352	-0.221
Taf12 (TBP-associated factor 12)	DRSC16879	-8.01	-0.4	0.168
Taf12 (TBP-associated factor 12)	DRSC28181	0.953	0.629	1.12
fau + CG45078 + CG45076	DRSC12816	-0.259	0.0277	0.254
loqs (loquacious)	DRSC02997	-0.629	0.18	-0.365
kraken	DRSC00824	0.457	0.417	-0.00289
kraken	DRSC28163	-1.13	1.11	-0.155
l(2)37Bb (lethal (2) 37Bb)	DRSC02088	-0.133 (active)	0.364	-3.24
CG3009	DRSC18263	-0.0828	-0.996	0.104
CG3009	DRSC28666	0.487	-1.56	0.24
hbn (homeobrain)	DRSC04238	-1.2	-0.308	0.906
hbn (homeobrain)	DRSC04239	-0.596	-3	-0.091
hbn (homeobrain)	DRSC22436	-2.4	-0.0174	0.165
S-Lap8 (Sperm-Leucylaminopeptidase 8)	DRSC06870	-0.536	-0.727	-1.31
S-Lap8 (Sperm-Leucylaminopeptidase 8)	DRSC21372	0.0398	-0.353	-1.21
S-Lap8 (Sperm-Leucylaminopeptidase 8)	DRSC29560	0.677	1.39	1.19
CG10062	DRSC05960	0.681	0.892	1
CG10062	DRSC22535	-2.14	-1.95	-0.219
CG10062	DRSC24932	-9.47	-0.176	-3.44
CG15439	DRSC00453	0.276	0.104	0.958
CG15439	DRSC29801	-3.12	-0.125	0.472
CG14014	DRSC02345	-0.903	-0.281	-0.0855
CG30036	DRSC21334	-0.122	-0.304	-0.0439
CG14106	DRSC10109	0.211	1.28	0.417
ocn (ocnus)	DRSC17020	0.808	0.313	-5.86
fln (flightin)	DRSC11346	-1.28	-2.48	0.545
fln (flightin)	DRSC28670	-0.0143	0.144	0.16
Rac2	DRSC11262	2.41 (active)	1.28	2.2
Rac2	DRSC25086	0.506	0.33	1.07
CG6931	DRSC10750	0.24	0.00902	-0.951
Cul1 (Cullin 1)	DRSC07645	0.363	-2.83	3.67
Cul1 (Cullin 1)	DRSC26395	1.64 (active)	-0.983	1.94
CG11313	DRSC14295	-0.496	-2.74	0.105
EloB (Elongin B)	DRSC16663	0.231	-0.509	-2.14
CG14131	DRSC10135	-0.163	0.491	0.926
CG14131	DRSC27727	1.11	1.45	0.658
Sbp2 (SECIS-binding protein 2)	DRSC10766	0.972	1.85	0.349
eIF4E3 (eukaryotic translation initiation factor 4E3)	DRSC10952	-0.367	-0.00167	-0.996
lili (lilipod)	DRSC14143	0.301	0.474	-0.0768
lili (lilipod)	DRSC29667	0.766	0.27	0.954

A portion of the results above:
Gene	dsRNA	Wolbachia per cell robust z, rep 1	Wolbachia per cell robust z, rep 2	Wolbachia per cell robust z, rep 3
Rok (Rho kinase)	DRSC20277	0.669	1.01	0.333
Rok (Rho kinase)	DRSC23348	-1.15	-1.49	-0.865
Acsx3 (Acyl-CoA synthetase X3)	DRSC14309	-0.0743	0.373	1.07
asRNA:CR43476 + CG42534	DRSC23246	-0.674	-1.34	-0.109
Mt2 (Methyltransferase 2)	DRSC03374	1.34	0.306	0.329
AnxB11 (Annexin B11)	DRSC19331	0.185	-0.579	-1.67
AnxB11 (Annexin B11)	DRSC26479	-0.897	0.02	0.465
Arf1 (ADP ribosylation factor 1)	DRSC11606	-1.09	-0.00322	-3.8
